Literature values, collected in publication PMC8145641 (Cells, 2021).
Which two values form the index is not stated here.

Test system: T. gondii
Details: thiosemicarbazides 1a–12a and drugs, as in the earlier paper; ref [25]; cited from earlier work

Going from `Cc1nc[nH]c1C(=O)NNC(=S)Nc1ccccc1Br` [7a] to `Cc1nc[nH]c1C(=O)NNC(=S)Nc1ccccc1Cl` [4a], the “SI (selectivity index)” value falls from 17.91 to 17.69.

Going from `Cc1nc[nH]c1C(=O)NNC(=S)Nc1ccc(Cl)cc1` [6a] to `Cc1nc[nH]c1C(=O)NNC(=S)Nc1ccc(I)cc1` [12a], the “SI (selectivity index)” value rises from 3.15 to 8.86.

Going from `Cc1nc[nH]c1C(=O)NNC(=S)Nc1ccc(F)cc1` [3a] to `Cc1nc[nH]c1C(=O)NNC(=S)Nc1ccc(Br)cc1` [9a], the “SI (selectivity index)” value rises from 8.86 to 15.35.

Going from `Cc1nc[nH]c1C(=O)NNC(=S)Nc1cccc(Br)c1` [8a] to `Cc1nc[nH]c1C(=O)NNC(=S)Nc1cccc(Cl)c1` [5a], the “SI (selectivity index)” value falls from 15.20 to 11.30.

Compared with `Cc1nc[nH]c1C(=O)NNC(=S)Nc1ccccc1I` [10a], `Cc1nc[nH]c1C(=O)NNC(=S)Nc1cccc(I)c1` [11a] is higher in “SI (selectivity index)” value: 9.79 for the first, 19.16 for the second.

In the case of `COc1cc(Cc2cnc(N)nc2N)cc(OC)c1OC` [Trimethoprim (TRI), Trimethoprim, reference compound], the “SI (selectivity index)” value is given as over 2.64.
For `Nc1ccc(S(=O)(=O)Nc2ncccn2)cc1` [Sulfadiazine (SUL), Sulfadiazine, reference compound], the “SI (selectivity index)” value is listed as under 0.92.
